# Source: patent publication US20190136246A1 (CSIR, published 2019)
# B1: BTV-8 VP2 (SEQ ID NO:7) (other)
# chain: MEELAIPIYTNVFPAELLDGYDYIIDVSSRVEEEGDEPVKRHDVTEIPRNSMFDIKDEHIRDAIIYKPVNNDGYVLPRVLDITLKAFDDRKRVVLNDGHSEFHTKTNWVQWMIDDAMDVQPLKVDIAHTRSRISHALFNCTVRLHSKKADTASYHVEPVEIESWGCNHTWLSRIHHLVNVELFHCSQEAAYTLKPTYKIISNAERASTSDSFNGTMIELGRNHQIQMGDQGYQKLKEGLVQVRIEGKTPLVIQEEITALNKIREQWIARNFDQREIKVLDLCRLLSTIGRKMCNTEEEPKNEADLSVKFQMELDEIFRPGNNERTNIMGGGVHRKNEDRFYVLIMIAASDTNKGRIWWSNPYPCLRGALIAAEVQLGDVYNLLRNWFQWSVRPTYVPYDRNRESDKYIYSRINLFDSTLRPGDKIVHWEYKLLNEVREVSINKGNECDLFPEDEEFTTKFHEARYTEMKNQIIQSGWNQRDFKMHKILEDGANVLTIDFEKDAHIGTGSALSLPDYYNKWIIAPMFNAKLRITEVVIGTAHTDDPAVGRSAKAFTHDPFDLQRYCLARYYDVRPGMMGRALSKQQNMSSMTDKLSKQEDYAGIVSRRLEYKERENRCLTETAQYVFEKTCLYVLELLSRHTMPSEDSEVTFEHPTIDPSVDIETWKIIDVSQLIIFVFDYLFENRKIVRDTTEARWTLFKIRSEVGRARIDAIEMTFPRFGRMLRNASQAKINQDIACLNFLPLLFIIGDNISYAHRQWSIPVLLYAHDIRIIPLEVGAYNNRFGLTSYLEYMAFFPSYATRVAKIDESIKECAIAMAEFYMNTDIHSGSVMSNVITTKRLLYETYLASLCGGYSDGLLWYLPITHPSKCLVAFEVADDVVPLSVRRERILSRFPLSSRHVKGIALISVDRNQKVSVQTEGIVTHRLCKKNLLKYVCDVILFKFSGHVFGNDEMLTKLLNV
# Biological target: BTV-8 core-like particle (BTV-8 VP3 SEQ ID NO:1 and BTV-8 VP7 SEQ ID NO:5) (Bluetongue virus serotype 8, UniProt P12435 1-901; P69361 1-349)
# Assay: VLP assembly on co-expression in N. benthamiana; iodixanol gradient, TEM
binder,measurement,value
B1,binding result,binds
